Data on one molecule can be found in patent publication US20130309248A1 (CRUCELL HOLLAND B V, published 2013).

Assay [1] has as its target T1, HA of virus A/Hong Kong/1/68 (H3N2) (influenza A virus (H3N2), UniProt Q91MA7 17-566). The experiment in a line: cell-based or functional assay.
The target of assay [2] is T1, HA of virus A/Hong Kong/1/68 (H3N2). The experiment in a line: cell-based or functional assay. The source holds these as a separate data set.

B1: CR8041 (antibody, V domains shown)
VH: QVQLVQSGAEVKKPGASVKVSCQASGYTFTSFGLSWVRQAPGQGPEWMGWISAYNGEIKYAQKFQGRVSMTTDTSTRTAYMEVRSLRPDDTAVYYCAREPPLYFSSWSLDF
VL: EIVLTQSPGTLSLSPGERATLSCRASQSVSSNYLAWFQQKPGQAPRLLIYGASRRATGIPDRFSGSGSGTDFTLTISRLEPEDFAVYYCQQYDSSPRT
On to B1, for which the “Neutralization titer SK50” value in assay [1] was determined as 1.05 µg/mL. For the same molecule, the SK50 titer in assay [2] came out at 1.7 µg/mL.
